Pooled drug test results. Numbers come from NIAID ChemDB, via PubChem.

Common to all: tests in culture; species: Mycobacterium tuberculosis

ECn is the concentration giving n% inhibition of infection, replication or growth. MIC50, MIC90 and the like: level of inhibition, or share of isolates inhibited. "inactive" is the filed call at that dose; no cut-off is given. Neighbouring rows are from separate reports. Inhibition is in % at the dose shown (toxicity tests: loss of growth or viability). An empty or dashed field is not shown. MIC bound comes from a single tested concentration.

smiles,strain or isolate,cell line,read by,measure,dose,result
N#C/C(=C\c1cccc(F)c1F)n1nnc2ccccc21,ATCC 27294,-,-,MIC50,-,52.4 µM
O=C1CC(N2C(=O)C3C4CCC(CC4)C3C2=O)C(=O)N1,H37Rv,-,BACTEC,MIC bound,-,>12.5 µg/mL
Cc1ccc(C(=S)Nc2ccccc2)cc1,H37Rv,-,-,MIC,-,125 µM
CC(=O)OC1CC2Cc3ccccc3C3(O)COC213,H37Rv,VERO,BACTEC,MIC,-,12.5 µg/mL
O=C(CN1CCN(c2cc3c(cc2F)c(=O)c(C(=O)O)cn3C2CC2)CC1)c1ccco1,H37Rv,-,-,inhibition,6.25 µg/mL,103%
COc1cc2c[n+](C)c3c4cc5c(cc4ccc3c2cc1OC)OCO5,H37Rv,-,BACTEC,inhibition,12.5 µg/mL,95%
COc1ccccc1N=Nc1c(S(=O)(=O)O)cc2cc(NC(=O)Nc3ccc4c(O)c(N=Nc5ccc(S(=O)(=O)O)cc5C)c(S(=O)(=O)O)cc4c3)ccc2c1O,H37Rv,-,BACTEC,inhibition,12.5 µg/mL,24%
N#C/C(=C\c1ccc(F)c(F)c1)n1nnc2ccccc21,ATCC 27294,-,-,MIC50,-,54.6 µM
O=C(N/N=C/c1ccc(F)cc1)c1ccncc1,16PI,-,-,MIC,-,>5 µg/mL
C=C1c2c(O)c(C)c(O)c(C(C)=O)c2OC12CC(=O)C(C(=O)O)=C2C,H37Rv,-,BACTEC,inhibition,12.5 µg/mL,25%
O=C(NN1C(=O)CSC1c1ccccc1F)c1ccncc1,H37Rv,-,-,MIC,-,>5 µg/mL
C=C(CC[C@@H](C)[C@H]1CC[C@@H]2[C@@H]3[C@@H](CC[C@@]21C)[C@@]1(CO)CC[C@H](O)CC1=C[C@@H]3O)C(C)C,-,-,-,MIC,-,12.5 µg/mL
CC(C)(C)C1CCc2onc(C(=O)Nc3cnn(Cc4ccc(F)cc4F)c3)c2C1,Rv3602c,-,-,MIC,-,>128 µM
CCn1cc(C(=O)O)c(=O)c2cc(F)c(N3CCN(C/C(=N/OCc4ccccc4)c4ccco4)CC3)cc21,H37Rv,-,-,MIC,-,>6.25 µg/mL
CC(=O)/C(N=Nc1ccc(C(=O)N/N=C/c2ccc([N+](=O)[O-])o2)cc1)=C(\C)O,H37Rv,-,-,MIC,-,3.13 µg/mL
CC1=C(O)C(C)(CCC(C)C)SC1=O,H37Rv,-,-,MIC90,-,>300 µM
Clc1ccc(Nc2cc3nc4ccccc4n(-c4ccc(Cl)c(Cl)c4)c-3cc2=NC2CCNCC2)cc1Cl,2218 (SM INH THA-RES),-,-,MIC,-,0.5 µg/mL
CCn1cc(C(=O)O)c(=O)c2cc(F)c(N3CCN(C/C(=N/OCc4ccccc4)c4cccs4)CC3)cc21,H37Rv,-,-,MIC,-,>6.25 µg/mL
CCCCN(CCCC)/N=C/C1=C2NC(=O)/C(C)=C\C=C/C(OC)C(OC(N)=O)/C(C)=C/C(C)C(O)C(OC)CC(C)CC(=C(OC)C1=O)C2=O,H37Rv,-,BACTEC,MIC bound,-,≤12.5 µg/mL
C/C(=N\NC(=O)c1ccncc1)c1ccccc1,H37Rv,-,-,MIC90,-,<6.25 µg/mL
Cc1ccc(C)c(N2C(=O)C(=O)C(c3nc4ccccc4s3)C(=Nc3cccc4c(=O)[nH][nH]c(=O)c34)C2=O)c1,H37Rv,-,resazurin,inhibition,6.25 µg/mL,10%
CCn1cc(C(=O)O)c(=O)c2cc(F)c(N3CCN(CC(=O)c4cccs4)CC3)cc21,H37Rv,-,-,inhibition,6.25 µg/mL,41%
O=C(N/N=C/C=C/c1ccccc1[N+](=O)[O-])c1ccncc1,Erdman,-,-,MIC90,-,0.25 µg/mL
CC(C)=CCC1(C)SC(=O)C(C)=C1O,H37Rv,-,-,MIC50,-,>300 µM
Cc1ccc(S(=O)(=O)N(/N=C/C=C/c2ccccc2)c2nnc(-c3ccccc3)c(-c3ccccc3)n2)cc1,H37Rv,-,BACTEC,inhibition,12.5 µg/mL,51%
CC(C)=CCC/C(C)=C/CC/C(C)=C/CC1(C)SC(=O)C(C)=C1O,H37Rv,-,-,MIC50,-,23 µM
Cc1onc(-c2c(Cl)cccc2Cl)c1C(=O)SC1=NC(C)N2C(SC(=O)c3c(-c4c(Cl)cccc4Cl)noc3C)=NC(C)N12,H37Rv,-,resazurin,inhibition,6.25 µg/mL,-16%
N#C/C(=C\c1cccc(C#N)c1)n1nnc2ccccc21,ATCC 27294,-,-,MIC50,-,20 µM
CC(C)(C)C1CCc2onc(C(=O)Nc3cnn(Cc4ccc(C(=O)NCCc5ccccc5)cc4)c3)c2C1,Rv3602c,-,-,MIC,-,>128 µM
CCOC(=O)C[N+]1(C)C2CCC1CC(OC(=O)C(CO)c1ccccc1)C2.[Cl-],H37Rv,-,BACTEC,MIC,-,≥12.5 µg/mL
CC1=C(O)C(C)(Cc2cccc(C(=O)c3ccccc3)c2)SC1=O,H37Rv,-,-,MIC90,-,128 µM
Oc1cc(Cl)ccc1Oc1ccc(Cl)cc1Cl,H37Rv,-,fluorescence,EC50,-,0.6 µM
CC1N2C3(c4ccccc4)OC(c4ccccc4)(c4ccccc43)C12c1ccccc1,H37Rv,-,BACTEC,MIC bound,-,>12.5 µg/mL
COc1ccc(C=Nc2ccc(O)cc2)cc1OC,H37Rv,-,-,inhibition,100 µg/mL,inactive
S=C(Nc1ccc(Cl)c(Cl)c1)c1ccccc1,H37Rv,-,-,MIC,-,15 µM
CCN=c1cc2n(-c3ccc(Cl)cc3)c3ccccc3nc-2cc1Nc1ccc(Cl)cc1,MTB12 (PZA-resistant),-,-,MIC,-,0.06 µg/mL
CC(=O)OC1OC(=O)C=C1[C@H]1CC=C(CC/C=C(\C)CCC2=C(C)CCCC2(C)C)C(O)O1,-,-,-,MIC,-,7 µg/mL
COc1cc2c3c(OC)cc4c(c3c[n+](C)c2c2cc3c(cc12)OCO3)OCO4,H37Rv,-,BACTEC,inhibition,12.5 µg/mL,99%
O=C(CN1CCN(c2cc3c(cc2F)c(=O)c(C(=O)O)cn3C2CC2)CC1)c1cccs1,H37Rv,-,-,MIC,-,1.56 µg/mL
CC(C)(C)C1CCc2onc(C(=O)Nc3cnn(Cc4ccc5ccccc5c4)c3)c2C1,Rv3602c,-,-,MIC,-,>128 µM
COc1cc([C@H]2OC(=O)C3C2C(=O)O[C@@H]3c2ccc(O)c(OC)c2)ccc1O,H37Rv,-,BACTEC,MIC bound,-,>12.5 µg/mL
CC1COc2c(N3CCN(C)CC3)c(F)cc3c(=O)c(C(=O)O)cn1c23,38 strains,-,-,MIC90,-,0.78 µg/mL
Cc1cc(O)c(C(C)C)cc1N1C(=O)C(Cl)C1c1ccoc1,H37Rv,-,-,inhibition,100 µg/mL,inactive
CC(C)=CCC/C(C)=C/CC1(C)SC(=O)C(C)=C1O,H37Rv,-,-,MIC50,-,96 µM
N#C/C(=C\c1cccc([N+](=O)[O-])c1)n1nnc2ccccc21,ATCC 27294,-,-,MIC50,-,38.2 µM
C=C(C)[C@H]1[C@@H]2C[C@H](C)[C@H]3CC[C@H](C)[C@@]4(O)C(=O)[C@]1(O)[C@@](C)(O)C(=O)[C@@]324,-,-,-,MIC,-,12.5 µg/mL
Nc1ccc(C(=O)N/N=C/c2ccc([N+](=O)[O-])cc2)cc1,H37Rv,-,-,MIC,-,>12.5 µg/mL
C[C@@H]1CN(c2c(F)c(N)c3c(=O)c(C(=O)O)cn(C4CC4)c3c2F)C[C@H](C)N1,25 strains,-,-,MIC50,-,0.1 µg/mL
CCOC(=O)C1=C(c2ccccc2)C2OC1C(COC(=O)NC)=C2COC(=O)NC,H37Rv,-,resazurin,inhibition,6.25 µg/mL,-66%
C/C=C1/C(=O)O[C@]23C=C[C@@H]4C(C(=O)OC)=CO[C@H](O[C@@H]12)[C@@H]43,MDR3 clinical isolate,-,MTT,MBC,-,2.9 µg/mL
Nc1nc(N)nc(-c2ccc([N+](=O)[O-])o2)n1,KM-R,-,-,MIC,-,3.1 µg/mL
CC1(C)CC[C@]2(C(=O)O)CC[C@]3(C)C(=CC[C@@H]4[C@@]5(C)C[C@H](O)[C@H](O)[C@@](C)(O)C5=CC[C@]43C)[C@@H]2C1,H37Rv (ATCC 27294),-,resazurin,MIC90,-,2.5 µg/mL
O=[N+]([O-])c1ccc(CO)c(I)c1,H37Rv,-,BACTEC,MIC bound,-,>12.5 µg/mL
COc1cc(/C=N/NC(=O)c2ccc(N)cc2)ccc1O,H37Rv,-,-,inhibition,12.5 µg/mL,26%
COC(=O)c1ccc(Cn2cc(NC(=O)c3noc4c3CC(C(C)(C)C)CC4)cn2)cc1,Rv3602c,-,resazurin,MIC,-,>128 µM
CN(C)CCc1c2c(nc3ccccc13)C(=O)c1cccnc1C2=O,H37Rv,-,resazurin,inhibition,6.25 µg/mL,99%
CC(C)(C)C1CCc2onc(C(=O)Nc3cnn(Cc4ccccc4Br)c3)c2C1,Rv3602c,-,-,MIC,-,>128 µM
O=C(O)c1cnc(Cl)cn1,ATCC 35828,-,-,MIC,-,256 µg/mL
C=C1C(OC(=O)C(C)C)C(O)C(=O)C(C)(C)/C=C\C(C)C(=O)C2(O)CC(C)C(OC(=O)CC)C2C1OC(=O)c1ccccc1,H37Rv,-,BACTEC,MIC bound,-,>12.5 µg/mL
CC(=O)C[C@H]1C[C@H]2[C@H]([C@@H]3c4[nH]c5ccccc5c4CCN13)[C@H](O)C13CC/C=C\CCCCN1CC21C2CCCCCCCN2[C@H]13,-,-,-,MIC,-,1.9 µg/mL
CC1=NC(=O)C(=Cc2ccc(N(C)C)cc2)N1c1cc(C(C)C)c(O)cc1C,H37Rv,-,-,inhibition,100 µg/mL,inactive
CN[C@@H]1[C@H](O[C@H]2[C@H](O[C@H]3[C@H](O)[C@@H](O)[C@H](N=C(N)N)[C@@H](O)[C@@H]3N=C(N)N)O[C@@H](C)[C@]2(O)C=O)O[C@@H](CO)[C@H](O)[C@H]1O,38 strains,-,-,MIC90,-,50 µg/mL
CCCCCCC#Cc1cncc(-c2nnc(SCc3ccc([N+](=O)[O-])cc3[N+](=O)[O-])n2C)c1,-,-,resazurin,EC50,-,1.4 µM
COc1ccc(C2SC(C)C(=O)N2c2cc(C(C)C)c(O)cc2C)cc1,H37Rv,-,-,inhibition,100 µg/mL,inactive
O=C1C(=Cc2ccc([N+](=O)[O-])o2)C(=O)N(CCc2ccccc2)S(=O)(=O)N1CCc1ccccc1,H37Rv,-,BACTEC,MIC bound,-,>12.5 µg/mL
COc1cc2c(C)[n+](C)c3c4cc5c(cc4ccc3c2cc1OC)OCO5,H37Rv,-,BACTEC,inhibition,12.5 µg/mL,97%
CC(C)(C)C1CCc2onc(C(=O)Nc3cnn(Cc4ccc(Cl)cc4)c3)c2C1,Rv3602c,-,resazurin,MIC,-,>128 µM
COc1ccc(NC(=S)c2ccc(Cl)cc2)cc1,H37Rv,-,-,MIC,-,61.9 µM
COc1cc(C2=NN(C(=O)COc3ccc4ccccc4c3)[C@H](c3ccc(O)cc3)C2)c(C)cc1OCC(=O)O,Isoniazid-resistant,-,-,inhibition,6.25 µg/mL,58%
COC(=O)c1cc2c(n1S(=O)(=O)c1ccc(C)cc1)C(=O)C(=O)c1[nH]cc(C(=O)OCc3ccccc3)c1-2,H37Rv,-,resazurin,inhibition,6.25 µg/mL,27%
S=C(Nc1ccc(C2CCCCC2)cc1)c1ccc(Cl)cc1,H37Rv,-,-,MIC,-,61.9 µM
CC1=C(C(=O)NN)CC/C1=N\N,H37Rv,-,BACTEC,inhibition,12.5 µg/mL,-23%
O=C(N/N=C/c1ccc(Cl)cc1Cl)c1ccncc1,16PI,-,-,MIC,-,>5 µg/mL
CCCCCCC#Cc1cncc(-c2nnc(SCc3cc([N+](=O)[O-])cc([N+](=O)[O-])c3)n2C)c1,-,-,resazurin,EC50,-,0.34 µM
Cc1[nH]nc(C(N)=O)c1N=NN(C)C,H37Rv,-,BACTEC,MIC bound,-,>12.5 µg/mL
CCn1cc(C(=O)O)c(=O)c2cc(F)c(N3CCN(C/C(=N/O)c4cccs4)CC3)cc21,H37Rv,-,-,MIC,-,>6.25 µg/mL
Nc1ccc(C(=O)N/N=C/c2ccccc2F)cc1,H37Rv,-,-,inhibition,12.5 µg/mL,6%
Cc1cc(O)c(C(C)C)cc1N1C(=O)C(Cl)C1c1cccc(Cl)c1,H37Rv,-,-,inhibition,100 µg/mL,inactive
Cc1ccc(NC(=S)c2ccc(Cl)cc2)cc1,H37Rv,-,-,MIC,-,61.9 µM
CCCCCCOc1ccc(/C=N/NC(=O)c2ccncc2)cc1,H37Rv,-,-,MIC90,-,0.39 µg/mL
COc1cc2c[n+](C)c3c4cc5c(cc4ccc3c2cc1O)OCO5,H37Rv,-,BACTEC,inhibition,12.5 µg/mL,0%
CC(C)(C)OC(=O)c1ccc(Cn2cc(NC(=O)c3noc4c3CC(C(C)(C)C)CC4)cn2)cc1,Rv3602c,-,-,MIC,-,>128 µM

Again, the opening 10 rows:

smiles,strain or isolate,cell line,read by,measure,dose,result
N#C/C(=C\c1cccc(F)c1F)n1nnc2ccccc21,ATCC 27294,-,-,MIC50,-,52.4 µM
O=C1CC(N2C(=O)C3C4CCC(CC4)C3C2=O)C(=O)N1,H37Rv,-,BACTEC,MIC bound,-,>12.5 µg/mL
Cc1ccc(C(=S)Nc2ccccc2)cc1,H37Rv,-,-,MIC,-,125 µM
CC(=O)OC1CC2Cc3ccccc3C3(O)COC213,H37Rv,VERO,BACTEC,MIC,-,12.5 µg/mL
O=C(CN1CCN(c2cc3c(cc2F)c(=O)c(C(=O)O)cn3C2CC2)CC1)c1ccco1,H37Rv,-,-,inhibition,6.25 µg/mL,103%
COc1cc2c[n+](C)c3c4cc5c(cc4ccc3c2cc1OC)OCO5,H37Rv,-,BACTEC,inhibition,12.5 µg/mL,95%
COc1ccccc1N=Nc1c(S(=O)(=O)O)cc2cc(NC(=O)Nc3ccc4c(O)c(N=Nc5ccc(S(=O)(=O)O)cc5C)c(S(=O)(=O)O)cc4c3)ccc2c1O,H37Rv,-,BACTEC,inhibition,12.5 µg/mL,24%
N#C/C(=C\c1ccc(F)c(F)c1)n1nnc2ccccc21,ATCC 27294,-,-,MIC50,-,54.6 µM
O=C(N/N=C/c1ccc(F)cc1)c1ccncc1,16PI,-,-,MIC,-,>5 µg/mL
C=C1c2c(O)c(C)c(O)c(C(C)=O)c2OC12CC(=O)C(C(=O)O)=C2C,H37Rv,-,BACTEC,inhibition,12.5 µg/mL,25%